Test results reported in publication PMC4989314, “Regulatory (pan-)genome of an obligate intracellular pathogen in the PVC superphylum”.
The exact form of at least one protein or probe is not confirmed. At least one verdict was read from the data and is not stated in words by the source. Tags and fusion partners may be left off the protein sequences shown.

Target: T1, His6-Euo (Waddlia chondrophila) (UniProt D6YSI2)
T1 sequence (looked up, limits assumed): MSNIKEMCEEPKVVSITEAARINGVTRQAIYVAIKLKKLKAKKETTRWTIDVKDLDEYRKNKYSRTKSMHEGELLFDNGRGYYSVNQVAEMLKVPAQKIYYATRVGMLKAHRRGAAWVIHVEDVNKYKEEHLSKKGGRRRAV
Assay: EMSA
Conditions: EMSA with Cy5 PCR probes or 80 ng unlabelled DNA (GelRed), recombinant protein, protein details: His6

Sequence	binding result (label: Cy5)	binding result
AAACTGCAGGGCCAATCTTTCATTGATTGTCCATTCATGGTCGGCAATTTTTGAGAGAATTTCTTTATTTTAAAATTCGTTCTTTGATAAAATTGCAGGCATGGTGCAAGTGCAGGATTCAGTTTTAGGAAAAAAGACGTTTTATAAGGATCGGTACGAGTCGACAAA (double strand) [PqueF_wt]	binds	–
AAACTGCAGGGCCAATCTTTCATTGATTGTCCATTCATGGTCGGCAATTTTTGAGAGAATTTCTTTATTTTATTTTTCGTTGAATGATAAAATTGCAGGCATGGTGCAAGTGCAGGATTCAGTTTTAGGAAAAAAGACGTTTTATAAGGATCGGTACGAGTCGACAAA (double strand) [PqueF_6SNP]	–	binds
AAACTGCAGGGCCAATCTTTCATTGATTGTCCATTCATGGTCGGCAATTTTTGAGAGAATTTCTTTATTTTAGGGTTCGTTCTTTGATAGGGTTGCAGGCATGGTGCAAGTGCAGGATTCAGTTTTAGGAAAAAAGACGTTTTATAAGGATCGGTACGAGTCGACAAA (double strand) [PqueF_mut 3+4]	binds	–
TTTGTCGACTTATCTTACACAACTGAGACTTCCAATGGTACTAAAATTCTTAAAATCTAGTTTTGAAAAAGTTAAAAATGCCCTCTCCAAAACGCGTTCCGCTCTGGGAGAAAAATTGCGTTCTCTTTTCAGTGGAAAAATCGATGAAGAAACACTGGACTGCAGTTT (double strand) [PftsY_wt]	binds	–
AAACTGCAGGGCCAATCTTTCATTGATTGTCCATTCATGGTCGGCAATTTTTGAGAGAATTTCTTTATTTTATTTATCGTTGAAAGATAAAATTGCAGGCATGGTGCAAGTGCAGGATTCAGTTTTAGGAAAAAAGACGTTTTATAAGGATCGGTACGAGTCGACAAA (double strand) [PqueF_8SNP]	–	binds
AAACTGCAGGGCCAATCTTTCATTGATTGTCCATTCATGGTCGGCAATTTTTGAGAGAATTTCTTTATTTTAAAAAAGCAACTTTGATAAAATTGCAGGCATGGTGCAAGTGCAGGATTCAGTTTTAGGAAAAAAGACGTTTTATAAGGATCGGTACGAGTCGACAAA (double strand) [PqueF_6SNP_internal]	–	binds
